## Share of PSTVd stem 15 variants by leaf site

The pool varies stem 15 of the PSTVd intermediate strain in the pattern CUGGAGCGAUNGNNUNNG; wild type is CUGGAGCGAUCGCUUCGG (upper and lower strand joined, each 5' to 3', the first 9 letters being the upper strand).

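Three N. benthamiana plants were inoculated with the whole mutant pool. Progeny were sequenced from the inoculated region (day 5), the margin of the inoculated leaf (day 10) and systemic leaves (day 12).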

Values are reads per thousand in the sample; higher means more abundant, 0 means not found.
Each value is the mean of three plants.
"Pool" is the share in the plasmid pool used as inoculum, on the same scale.
The inoculated region was read from the minus strand, the other sites from the plus strand.

sequence	pool	inoculated region	leaf margin	systemic leaves
CUGGAGCGAUUGUUUCCG	0.727	0.222	0.0372	0
CUGGAGCGAUAGGUUGUG	0.857	0.282	0.0350	0
CUGGAGCGAUAGUGUUCG	0.792	0.336	0.0563	0
CUGGAGCGAUAGGCUCGG	0.614	0.218	0.227	0
CUGGAGCGAUGGUCUAAG	1.03	1.52	0.682	0.468
CUGGAGCGAUCGUCUUUG	0.792	1.37	0.0229	0
CUGGAGCGAUUGAUUUUG	1.50	1.15	0.0478	0.0133
CUGGAGUGAUCGCUUCGG	0.0162	0.188	0.364	0.744
CUGGAGCAAUAGGCUCCG	0.0162	0	0	0
CUGGAGCGAUCGUGUAGG	0.840	0.237	0.0441	0
CUGGAGCGAUAGUGUGGG	0.857	0.293	0.0320	0
CUGGAGCGAUAGGGUAGG	0.840	0.260	0.0547	0
CUGGAGCGAUGGUCUCAG	1.37	1.87	0.610	0.630
CUGGAGCGAUUGACUCUG	0.857	0.247	0.0770	0
CUGGAGCGAUAGGUUUGG	0.857	0.294	0.00689	0
CUGGAGCGAUGGCUUAAG	0.760	0.224	0.0510	0
CUGGAGCGAUCGUUUGGG	0.727	0.273	0.0298	0
CUGGAGCGAUCGCAUAAG	0.873	0.301	0.0488	0
CUGGAGCGAUAGUAUCCG	0.954	0.222	0.0282	0
CUGGAGCGAUGGAGUGCG	0.873	0.283	0.0213	0
CUGGAGCGAUAGCCUGCG	0.905	0.310	0.0191	0
CUGGAGCGAUAGCAUGAG	0.727	0.242	0.0457	0
CUGGAGCGAUUGGGUUGG	0.824	0.285	0.0235	0
CUGGAGCGAUGGCCUGGG	0.808	0.280	0.0160	0
CUGGAGCGAUAGCUUCGG	0.889	0.509	0.306	0.705
CUGGAGCGAUGGCUUUGG	0.679	0.248	0.0435	0
CUGGAGCGAUCGUUUACG	0.792	0.289	0.0367	0
CUGGAGCGAUCGCCUCAG	0.873	0.283	0.0350	0
CUGGAGCGAUUGCAUAUG	1.08	0.496	0.0435	0
CUGGAGCGAUGGCGUAUG	0.905	0.281	0.0372	0
CAGGAGCGAUUGUGUGCG	0.0162	0	0	0
CUGGAGCGAUGGCAUAGG	1.07	0.307	0.0435	0
CUGGAGCGAUGGCAUGCG	1.10	0.214	0.00908	0
CUGGAGCGAUGGCGUGCG	0.776	0.219	0.0501	0
CAGGAGCGAUUGAUUAUG	0.0162	0	0	0
CUGGAGCGAUCGGCUCCG	0.760	0.242	0.0282	0
CUUGAGCGAUAGGGUAAG	0.0162	0	0	0
CUGGAGCGAUUGGGUUUG	0.760	0.241	0.0175	0
CUGGAGCGAUAGCCUGUG	0.889	0.303	0.0371	0
CUGGAGCGAUCGAGUUUG	1.05	0.301	0.0303	0
CUGGAGCGAUGGUCUUCG	0.711	1.03	0.00908	0
CUGGAGCGAUAGUUUCGG	0.711	0.311	0.0191	0
CUGGAGCGAUAGGAUGGG	1.03	0.302	0.0435	0
CUGGAGCGAUCGAAUCAG	0.792	0.310	0.0329	0
CUGGAGCGAUCGUCUACG	0.937	0.274	0.00528	0
CUGGAGCGAUAGCCUUCG	1.23	0.538	0.0679	0
CUGGAGCGAUAGCGUGGG	0.840	0.281	0.0122	0
CUGGAGCGAUUGGCUUAG	0.889	1.58	0.649	0.644
CUGGAGCGAUAGACUUGG	0.808	0.243	0.0345	0
CUGGAGCGAUUGUAUCAG	0.937	1.66	0.450	0.238
AUGGAGCGAUAGCUUUCG	0.0162	0	0	0
CUGGAGCGAUGGGUUAGG	0.954	0.288	0.0229	0
CUGGAGCGAUCGCAUUCG	0.937	0.318	0.0419	0
CUGGAGCGAUAGACUACG	0.857	0.295	0.0563	0.00664
CUGGAGCGAUUGUUUCUG	1.00	1.08	0.0425	0
CUGGAGCGAUUGCCUCAG	1.03	1.37	0.551	0.541
CUGGAGCGAUUGAGUCAG	1.10	0.556	0.00528	0

Excerpt, the final 7 entries:

sequence	pool	inoculated region	leaf margin	systemic leaves
AUGGAGCGAUAGCUUUCG	0.0162	0	0	0
CUGGAGCGAUGGGUUAGG	0.954	0.288	0.0229	0
CUGGAGCGAUCGCAUUCG	0.937	0.318	0.0419	0
CUGGAGCGAUAGACUACG	0.857	0.295	0.0563	0.00664
CUGGAGCGAUUGUUUCUG	1.00	1.08	0.0425	0
CUGGAGCGAUUGCCUCAG	1.03	1.37	0.551	0.541
CUGGAGCGAUUGAGUCAG	1.10	0.556	0.00528	0

For reference, wild type rose from 10.2 per thousand in the pool to 285, 367, 312 (inoculated region), 785, 865, 782 (leaf margin) and 854, 898, 915 (systemic leaves).
With 36,693-63,082 reads a sample, very low values are single reads.
The authors trace changes outside the varied positions to PCR and sequencing errors or to mutation in the plant; presence does not show that a variant is infectious alone.

From the data files of Wu et al. 2024, doi:10.1371/journal.ppat.1012142.